Reference: publication PMC10787639 (Frontiers in Molecular Biosciences, 2023)

Test system: Ct PCNA
Assay: Protein X-ray crystallography of PIP peptide-Ct PCNA complex
Type: binding, Chaetomium thermophilum
Conditions: crystal structure, Ct PolD3 2.45 Å (PDB 8P9O), Ct Fen1 1.95 Å (PDB 8Q7I), 3_10 helix, Q-pocket, 2-fork plug

## GAQQARIEGFFKVIP [Ct Fen1 PIP peptide, 15mer Ct Fen1 peptide spanning residues 339–353, commercially synthesised (GenScript), purity 99.1%]
  binding mode on Ct PCNA: canonical binding mode
Listed as Ct Fen1 nuclease PIP peptide
  binding mode on Ct PCNA: canonical binding
Listed as Fen1 PIP peptide
  binding mode on Ct PCNA: strictly canonical
